According to patent US5270344A, “Method of treating a systemic disorder using trioxolane and diperoxide compounds” (priority 1992, dated 1993):

Legend:
S. aureus [1] = experiment: MIC by agar diffusion method; assay type: cell-based, Staphylococcus aureus
S. epidermidis = experiment: MIC by agar diffusion method; assay type: cell-based, Staphylococcus epidermidis
N. gonorrhoea = experiment: MIC by agar diffusion method; assay type: cell-based, Neisseria gonorrhoea
Salmonella [2] = experiment: MIC by agar diffusion method; assay type: cell-based, Salmonella spp.; conditions: N=3
Shigella [3] = experiment: MIC by agar diffusion method; assay type: cell-based, Shigella spp.; conditions: N=7
EPEC/ETEC [4] = experiment: MIC by agar diffusion method; assay type: cell-based, enteropathogenic/enterotoxigenic Escherichia coli
Pseudomonas [5] = experiment: MIC by agar diffusion method; assay type: cell-based, Pseudomonas spp.; conditions: N=2
Kiebisella = experiment: MIC by agar diffusion method; assay type: cell-based, Klebsiella spp.; conditions: Klebsiella, N=1
Archromobacter = experiment: MIC by agar diffusion method; assay type: cell-based; conditions: Achromobacter, N=1
E. coli [6] = experiment: MIC by agar diffusion method; assay type: cell-based; conditions: N=3
C. albicans = experiment: MIC by agar diffusion method; assay type: cell-based, Candida albicans; conditions: N=5
Tri. violaceum = experiment: MIC by agar diffusion method; assay type: cell-based, Trichophyton violaceum; conditions: N=1
Tri. canis = experiment: MIC by agar diffusion method; assay type: cell-based, Trichophyton canis; conditions: N=1
Cryptococcus = experiment: MIC by agar diffusion method; assay type: cell-based, Cryptoccus spp.; conditions: N=1
Ph. verrucose = experiment: MIC by agar diffusion method; assay type: cell-based, Phialophora verrucose; conditions: N=1
Penicillium = experiment: MIC by agar diffusion method; assay type: cell-based, Penicillium spp.; conditions: N=1
S. aureus [7] = experiment: MIC by agar dilution (agar); assay type: cell-based, Staphylococcus aureus; conditions: N=10
EPEC/ETEC [8] = experiment: MIC by agar dilution (agar); assay type: cell-based, enteropathogenic/enterotoxigenic Escherichia coli; conditions: N=5
Salmonella [9] = experiment: MIC by agar dilution (agar); assay type: cell-based, Salmonella spp.; conditions: N=3
Shigella [10] = experiment: MIC by agar dilution (agar); assay type: cell-based, Shigella spp.; conditions: N=7
Pseudomonas [11] = experiment: MIC by agar dilution (agar); assay type: cell-based, Pseudomonas spp.; conditions: N=2
Candida [12] = experiment: MIC by agar dilution (agar); assay type: cell-based, Candida spp.; conditions: N=2
S. aureus [13] = experiment: MIC, broth; assay type: cell-based, Staphylococcus aureus; conditions: N=10
EPEC/ETEC [14] = experiment: MIC, broth; assay type: cell-based, enteropathogenic/enterotoxigenic Escherichia coli; conditions: N=5
Salmonella [15] = experiment: MIC, broth; assay type: cell-based, Salmonella spp.; conditions: N=3
Shigella [16] = experiment: MIC, broth; assay type: cell-based, Shigella spp.; conditions: N=7
Pseudomonas [17] = experiment: MIC, broth; assay type: cell-based, Pseudomonas spp.; conditions: N=2
Candida [18] = experiment: MIC, broth; assay type: cell-based, Candida spp.; conditions: N=2
S. aureus [19] = experiment: MBC by broth method; assay type: cell-based, Staphylococcus aureus
Salmonella [20] = experiment: MBC by broth method; assay type: cell-based, Salmonella spp.; conditions: N=3
Shigella [21] = experiment: MBC by broth method; assay type: cell-based, Shigella spp.; conditions: N=7
EPEC/ETEC [22] = experiment: MBC by broth method; assay type: cell-based, enteropathogenic/enterotoxigenic Escherichia coli; conditions: N=5
Pseudomonas [23] = experiment: MBC by broth method; assay type: cell-based, Pseudomonas spp.; conditions: N=2
Candida [24] = experiment: MBC by broth method; assay type: cell-based, Candida spp.; conditions: N=2
[25] = test system: commonly encountered microorganisms; experiment: Antimicrobial activity in vitro, overall comparison; assay type: cell-based, bacteria and fungi
Leishmania major = experiment: Treatment of mice infected with Leishmania major; assay type: in vivo, balb/c mice; conditions: n = 15/group
Leishmania donova = experiment: Treatment of mice infected with Leishmania donova; assay type: in vivo, Balb/c mice; conditions: 20 mg/kg IP daily for 5 days; preliminary
[26] = Three-month trial in ARC and lymphoma patients; assay type: in vivo, human; conditions: three ARC patients and one lymphoma patient
E. coli [27] = experiment: In vitro anti-microbial assay of linalool trioxolane; conditions: ointment with 1.0% derivative; inoculum approx. 1×10^6 CFUs/1 ml; 7 days and all subsequent sample selections to 28 days; 20°-25° C.

In the case of Geraniol trioxolane, the MIC (S. aureus [1]; N=16) is reported as 310 µg/mL, the “lowest concentration inhibiting at least one isolate” value (from here on “lowest concentration inhibiting”) (S. aureus [1]; in parentheses) is reported as 0.004 mg/mL and the MIC (S. epidermidis; N=14) is reported as 310 µg/mL. The “lowest concentration inhibiting” value (S. epidermidis; in parentheses) was 0.004 mg/mL, the MIC (N. gonorrhoea; N=49) was 150 µg/mL and the “lowest concentration inhibiting” value (N. gonorrhoea; in parentheses) was 0.008 mg/mL. It also gave an MIC (Salmonella [2]) of 310 µg/mL, an MIC (Shigella [3]) of 310 µg/mL and an MIC (EPEC/ETEC [4]; N=16) of 520 µg/mL. The “lowest concentration inhibiting” value (EPEC/ETEC [4]; in parentheses) was 0.31 mg/mL, the MIC (Pseudomonas [5]) was 35 µg/mL and the MIC (Kiebisella) was 17 µg/mL. It also gave an MIC (Archromobacter) of 620 µg/mL, an MIC (E. coli [6]) of 310 µg/mL and an MIC (C. albicans) of 620 µg/mL. For the same substance, the MIC (Tri. violaceum) was 310 µg/mL, the MIC (Tri. canis) was 310 µg/mL and the MIC (Cryptococcus) was 150 µg/mL. The MIC (Ph. verrucose) was 310 µg/mL, the MIC (Penicillium) was 620 µg/mL and the MIC agar (S. aureus [7]) was 150 µg/mL. For the same substance, the MIC agar (EPEC/ETEC [8]) was 620 µg/mL, the MIC agar (Salmonella [9]) was 310 µg/mL and the MIC agar (Shigella [10]) was 310 µg/mL. For the same substance, the MIC agar (Pseudomonas [11]) was 35 µg/mL, the MIC agar (Candida [12]) was 620 µg/mL and the MIC broth (S. aureus [13]) was 780 µg/mL. The MIC broth (EPEC/ETEC [14]) was 560 µg/mL, the MIC broth (Salmonella [15]) was 3120 µg/mL and the MIC broth (Shigella [16]) was 1560 µg/mL. The MIC broth (Pseudomonas [17]) was 1560 µg/mL, the MIC broth (Candida [18]) was 3120 µg/mL and the MBC (S. aureus [19]; N=10) was 3120 µg/mL. For the same substance, the “lowest concentration for corresponding organism” value (S. aureus [19]; in parentheses) was 0.78 mg/mL, the MBC (Salmonella [20]) was 6250 µg/mL and the MBC (Shigella [21]) was 3120 µg/mL. The MBC (EPEC/ETEC [22]) was 3120 µg/mL, the MBC (Pseudomonas [23]) was 3120 µg/mL and the MBC (Candida [24]) was 3120 µg/mL. The “Activity compared with conventional drugs” value ([25]; in vitro, Tables 4-6) was “more active than conventional drugs”, the “Effect of water on direct bioactivity” value ([25]; water as diluent) was “significantly reduces the direct bioactivity” and the “Dead, Day 14” value (Leishmania major; IP) was 4 dead. For the same substance, the “Lesions, Day 0” value (Leishmania major; IP) was “Large lesions”, the “Lesions, Day 14” value (Leishmania major; IP) was “Lesions breaking” and the “Death, Day 14” value (Leishmania major; topical ointment 4 mg/ml) was “No death”. The “General health, Day 14” value (Leishmania major; topical ointment 4 mg/ml) was “Healthy”, the “Lesions, Day 0” value (Leishmania major; topical ointment 4 mg/ml) was “Large lesions” and the “Lesions, Day 14” value (Leishmania major; topical ointment 4 mg/ml) was “Dry lesions”. The “Palate involvement, Day 14” value (Leishmania major; topical ointment 4 mg/ml) was “No palate involvement”, the “Clearing parasites from the viscera” value (Leishmania donova) was “perform better than Pentostam” and the “Remission after initial treatment” value [26] was “resulted in remission”.
For linalool trioxolane, the CFUs present (E. coli [27]) was “less than 10 CFUs”.
